Compound potency records, mixed from different reports. Data source: NIAID ChemDB in PubChem.

Common to all: whole-cell or culture tests; organism: HIV-1; method: plaque count; endpoint: EC50

ECn is the concentration giving n% inhibition of infection, replication or growth. Blank or dashed fields: not listed here. Conditions beyond the fields shown may differ between rows.

{"structure": "CCCCCCCCCCCCSCC(COP(=O)([O-])OCC[N+](C)(C)C)OCCCCCCCCO", "cell line": "CEM + CEM-SS", "strain": "Clinical isolate H112-2 pre-AZT", "value": "0.21 µM"}
{"structure": "Nc1ccn([C@H]2CC[C@@H](CO)O2)c(=O)n1", "changes": "RT-M184I", "cell line": "HELA/CD4 + HELA CD4+", "strain": "HXB2", "value": "0.4 µM"}
{"structure": "O=c1[nH]cnc2c1ncn2[C@H]1CC[C@@H](CO)O1", "cell line": "CD4+HELA + HeLa", "strain": "RTMC", "value": "2.5 µM"}
{"structure": "Cc1cn([C@H]2C[C@H](N=[N+]=[N-])[C@@H](CO)O2)c(=O)[nH]c1=O", "changes": "RT-M41L D67N K70R M184V T215Y", "cell line": "HT4LACZ-1 + HT4 LacZ-1", "strain": "RR/Q184 (RT M41L D67N K70R T215Y M184V)", "value": "0.07 µM"}
{"structure": "S=C(NCCc1cccs1)Nc1ccc(Br)cn1", "changes": "RT-K20R M41L D67N T69N K70R L210W T215Y", "cell line": "HT4 + HeLa", "strain": "G890-1 Clinical isolate NRTI-resistant", "value": "0.01 µM"}
{"structure": "O=c1[nH]cnc2c1ncn2[C@H]1CC[C@@H](CO)O1", "changes": "RT-L74V Y181C T215Y", "cell line": "HT4 + HT4 LacZ-1", "strain": "HIVRTMF (RT L74V Y181C)", "value": "10 µM"}
{"structure": "CCCCCCCCCCCCCC(=O)OC[C@H](COP(=O)(O)OP(=O)(O)OC[C@@H]1CC[C@H](n2cc(C)c(=O)[nH]c2=O)O1)OC(=O)CCCCCCCCCCCCC", "cell line": "HT4 + HT4-6C", "strain": "A012B Clinical isolate", "value": "8 µM"}
{"structure": "Nc1nc(=O)n([C@@H]2CS[C@H](CO)O2)cc1F", "changes": "RT-Y181C", "cell line": "HT4 + HT4 LacZ-1", "strain": "HXB2", "value": "0.02 µM"}
{"structure": "Cc1cn([C@H]2CC[C@@H](CO)O2)c(=O)[nH]c1=O", "cell line": "HT4 + HT4-6C", "strain": "AZT-resistant A012C Clinical isolate", "value": "185 µM"}
{"structure": "Cc1cn([C@H]2C[C@H](N=[N+]=[N-])[C@@H](CO)O2)c(=O)[nH]c1=O", "changes": "RT-D67N K70R T215Y", "cell line": "HT4 + HT4-6C", "strain": "clinical isolate A036D (RT D67N K70R T215Y)", "value": "5.6 µM"}
{"structure": "CCCCCCCCCCCCSCC(COP(=O)([O-])OCC[N+](C)(C)C)OCCCCCCCCC(=O)OCC(=O)OC[C@H]1O[C@@H](n2cc(C)c(=O)[nH]c2=O)C[C@@H]1N=[N+]=[N-]", "changes": "RT-T215F A98S D67N K219Q", "cell line": "CEM-SS", "strain": "5346/5652-MDR (RT T215F A98S D67N K219Q) Drug-resistant", "value": "0.03 µM"}
{"structure": "Nc1ccn([C@H]2CC[C@@H](CO)O2)c(=O)n1", "cell line": "CD4+HELA + HeLa", "strain": "RTMC", "value": "0.1 µM"}
{"structure": "Nc1ccn([C@H]2CC[C@@H](CO)O2)c(=O)n1", "changes": "RT-M184V", "cell line": "HT4 + HT4 LacZ-1", "strain": "HXB2", "value": "0.77 µM"}
{"structure": "Nc1nc(=O)n([C@@H]2CS[C@H](CO)O2)cc1F", "cell line": "HELA/CD4 + HELA CD4+", "strain": "HXB2", "value": "0.105 µM"}

For reference, 2 entries again:

structure	changes	cell line	strain	value
Nc1nc(=O)n([C@@H]2CS[C@H](CO)O2)cc1F	-	HELA/CD4 + HELA CD4+	HXB2	0.105 µM
CCCCCCCCCCCCSCC(COP(=O)([O-])OCC[N+](C)(C)C)OCCCCCCCCO	-	CEM + CEM-SS	Clinical isolate H112-2 pre-AZT	0.21 µM